Experimental data from ChEMBL document CHEMBL1127858, “Synthesis and evaluation of the anti-HIV activity of aza and deaza analogues of isoddA and their phosphates as prodrugs” (J Med Chem, 1994).

Tests used:
[1] = Ratio of CC50 value that of EC50 value(HIV-1); assay type: functional
Method in brief: (§1)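 Selectivity index as the CC50/EC50 ratio. CC50 comes from mock-infected MT-4 viability by MTT. EC50 comes from MTT-measured protection of MT-4 cells infected with 100 CCID50 of HIV-1 IIIB or HIV-2 CBL 20. Data are means of three experiments.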

[2] = Ratio of CC50 value that of EC50 value(HIV-2); assay type: functional; method in brief: as §1

Cc1cn([C@H]2C[C@H](N=[N+]=[N-])[C@@H](CO)O2)c(=O)[nH]c1=O [ZIDOVUDINE]
Ratio [1]: > 8000
Ratio [2]: > 2000
